For this series, the system named is infant intestinal microbiota. As to the kind of experiment: quad-SHIME model of infant intestinal microbiota (SCFA, glycoprofile). Set-up: species or system human. The source says:
A faecal sample from a healthy infant born via C-section, exclusively breastfed with no history of antibiotic usage, was used as inoculum to simulate the infant intestinal microbiota in the colon compartments of a quad-SHIME®—a dynamic model of the human gastrointestinal tract comprises 4 SHIME® units running in parallel and each SHIME® unit is composed of 3 reactors simulating the stomach and small intestine, proximal and distal colons.

One compound from patent US20220079962A1, “NUTRITIONAL COMPOSITION COMPRISING 2'FUCOSYLLACTOSE AND DIETARY BUTYRATE” (N.V. Nutricia, priority 2019, published 2022) can be followed below.

For `C[C@@H]1O[C@@H](O[C@H]2[C@H](O[C@H]3[C@H](O)[C@@H](O)C(O)O[C@@H]3CO)O[C@H](CO)[C@H](O)[C@@H]2O)[C@@H](O)[C@H](O)[C@@H]1O` (stereo partly drawn) [2′-FL, α-L-Fuc-(1→2)-β-D-Gal-(1→4)-D-Glc], the “metabolism of 2′-FL by microbiota (glycoprofile)” value (in the presence of scGOS/IcFOS) is “slowly metabolised across the proximal and distal colon”; the “metabolism of 2′-FL by microbiota (glycoprofile)” value (supplemented alone) was “not metabolized”.
